Measured values from several laboratories, pooled; numbers as filed in NIAID ChemDB.

All rows: cytotoxicity tests; cells: MT-4; method: MTT; endpoint: CC50

Conditions beyond the fields shown may differ between rows. CCn: concentration that lowers growth or viability of the cells by n%.

compound | result
CCc1c(Cc2cc(C)cc(C)c2)n(COCC#Cc2cnccn2)c(=O)[nH]c1=O | 30 µM
Nn1cc(C(=O)O)c(=O)c2ccc(N3CCN(c4ccccn4)CC3)nc21 | 173 µM
C(=N\Nc1nc(-c2ccccc2)cs1)/c1ccccn1 | 2.97 µM
Clc1ccc(-c2nc(-c3nnc(C45CCC6CC(CC4C6)C5)o3)cs2)cc1 | >125 µM
COCC[C@H](C)OC(=O)[C@@H](N)c1ccccc1-c1c[nH]c2ccccc12 | >50 µM
C=Cn1cc(C(=O)O)c(=O)c2ccc(N3CCN(c4nc5ccccc5s4)CC3)nc21 | 0.44 µM
CCn1cc(C(=O)O)c(=O)c2cc(F)c(N3CCN(CN4C(=O)C(=Nc5ccc(S(=O)(=O)Nc6nc(C)cc(C)n6)cc5)c5cc(F)ccc54)C(C)C3)c(F)c21 | 126 µM
CCOCn1c(Cc2cccc(OCC=O)c2)c(CC)c(=O)[nH]c1=O | 45 µM
Brc1ccc(-c2nc(-c3nnc(C45CCC6CC(CC4C6)C5)o3)cs2)cc1 | >110 µM
CCc1c(Cc2cc(C)cc(C)c2)n(COCC#Cc2ccc(O[Si](c3ccccc3)(c3ccccc3)C(C)(C)C)cc2)c(=O)[nH]c1=O | >100 µM
C=C(C)COCn1c(C(=C)c2cc(C)cc(C)c2)c(CC)c(=O)[nH]c1=O | 34 µM
Cn1cc(C(=O)O)c(=O)c2sc(N3CCN(c4nc5ccccc5s4)CC3)nc21 | 2.05 µM
C=CCOCn1c(Cc2cccc(OCC=C)c2)c(CC)c(=O)[nH]c1=O | 44 µM
CCc1c(Cc2cc(C)cc(C)c2)n(COCc2cn(Cc3c(F)cccc3F)nn2)c(=O)[nH]c1=O | 54 µM
C=C(c1cc(C)cc(C)c1)c1c(CC)c(=O)[nH]c(=O)n1COCC | >100 µM
C=Cn1cc(C(=O)O)c(=O)c2ccc(N3CCN(c4nc5ccccc5o4)CC3)nc21 | 18.3 µM
c1ccc(COC[C@H]2O[C@H](O[C@H]3[C@H](OCc4ccccc4)[C@H](OCc4ccccc4)[C@@H]4OC[C@H]3O4)[C@H](OCc3ccccc3)[C@@H](OCc3ccccc3)[C@H]2OCc2ccccc2)cc1 | >200 µg/mL
Cn1cc(C(=O)O)c(=O)c2ncc(N3CCN(c4nc5ccccc5s4)CC3)cc21 | >119 µM
CCc1c(Cc2cc(C)cc(C)c2)n(COCC#Cc2ccccc2C(F)(F)F)c(=O)[nH]c1=O | 25 µM
Cc1cc(C)nc(NS(=O)(=O)c2ccc(N=C3C(=O)N(CN4CCN(c5cc6c(cc5F)c(=O)c(C(=O)O)cn6C5CC5)CC4)c4ccccc43)cc2)n1 | 114.2 µM
C=C(c1cccc2ccccc12)c1c(CC)c(=O)[nH]c(=O)n1COCC | 66 µM
c1ccc(COCC2OC(OC3C4COC(O4)C(OCc4ccccc4)C3OCc3ccccc3)C(OCc3ccccc3)C(OCc3ccccc3)C2OCc2ccccc2)cc1 | >200 µg/mL
CSCC[C@H](OC(=O)[C@@H](N)c1ccccc1-c1c[nH]c2ccccc12)c1ccccc1 | 20 µM
C=C(c1cc(C)cc(C)c1)c1c(CC)c(=O)[nH]c(=O)n1COC1Cc2ccccc2C1 | 34 µM
Cn1cc(C(=O)O)c(=O)c2cncc(N3CCN(c4nc5ccccc5s4)CC3)c21 | 25.57 µM
CCn1cc(C(=O)O)c(=O)c2cc(F)c(N3CCN(CN4C(=O)C(=Nc5ccc(S(=O)(=O)Nc6nc(C)cc(C)n6)cc5)c5cc(F)ccc54)CC3)cc21 | 132.1 µM
Clc1ccccc1-c1nc(-c2nnc(C34CCC5CC(CC3C5)C4)o2)cs1 | >125 µM
CCc1c(Cc2cc(C)cc(C)c2)n(COCC#Cc2cccs2)c(=O)[nH]c1=O | 38 µM
C=CCCc1cccc(Cc2c(CC)c(=O)[nH]c(=O)n2COCC=C)c1 | 42 µM
CCc1c(Cc2cc(C)cc(C)c2)n(COCC#Cc2ccc(CO)cc2)c(=O)[nH]c1=O | 42 µM
C=CCCc1cccc(Cc2[nH]c(=S)[nH]c(=O)c2CC)c1 | 80 µM
C=Cn1cc(C(=O)O)c(=O)c2ccc(N3CCN(c4cccc(C(F)(F)F)c4)CC3)nc21 | 120 µM
CCn1cc(C(=O)O)c(=O)c2cc(F)c(N3CCN(CN4C(=O)C(=Nc5ccc(S(=O)(=O)Nc6nc(C)cc(C)n6)cc5)c5ccccc54)C(C)C3)c(F)c21 | 122 µM
N#Cc1ccc(-c2csc(N/N=C/c3cccnc3)n2)cc1 | 7.73 µM
CCc1c(Cc2cc(C)cc(C)c2)n(COC/C(=C/Sc2ccccc2)Sc2ccccc2)c(=O)[nH]c1=O | 60 µM
COc1ccc(N2CCN(CN3C(=O)C(=Nc4ccc(S(=O)(=O)Nc5nc(C)cc(C)n5)cc4)c4ccccc43)CC2)cc1 | 44.4 µM
Cc1cn([C@H]2C[C@H](N=[N+]=[N-])[C@@H](CO)O2)c(=O)[nH]c1=O | 67 µM
CCc1c(Cc2cc(C)cc(C)c2)n(COCC#Cc2ccc([N+](=O)[O-])cc2)c(=O)[nH]c1=O | 7 µM
O=[N+]([O-])c1ccc(-c2csc(N/N=C/c3ccccc3O)n2)cc1 | 125 µM
C=C(c1cc(C)cc(C)c1)c1c(CC)c(=O)[nH]c(=O)n1COC/C(C)=C/c1ccccc1 | 31 µM
CCOCn1c(Cc2cccc(OCC=NO)c2)c(CC)c(=O)[nH]c1=O | >100 µM
C=C(C)COCn1c(C(=C)c2ccccc2)c(CC)c(=O)[nH]c1=O | >100 µM
C(=N\Nc1nc(-c2ccccc2)cs1)/c1ccco1 | 11.3 µM
CCc1c(Cc2cc(C)cc(C)c2)n(COCC#Cc2cccc(CO)c2)c(=O)[nH]c1=O | 34 µM
Cc1cc(C)nc(NS(=O)(=O)c2ccc(N=C3C(=O)N(CN4CCN(c5cc6c(cc5F)c(=O)c(C(=O)O)cn6C)CC4C)c4ccccc43)cc2)n1 | 128.6 µM

For reference, 5 entries again:

compound	result
CCn1cc(C(=O)O)c(=O)c2cc(F)c(N3CCN(CN4C(=O)C(=Nc5ccc(S(=O)(=O)Nc6nc(C)cc(C)n6)cc5)c5cc(F)ccc54)C(C)C3)c(F)c21	126 µM
CCc1c(Cc2cc(C)cc(C)c2)n(COCC#Cc2cccs2)c(=O)[nH]c1=O	38 µM
C(=N\Nc1nc(-c2ccccc2)cs1)/c1ccccn1	2.97 µM
Cn1cc(C(=O)O)c(=O)c2sc(N3CCN(c4nc5ccccc5s4)CC3)nc21	2.05 µM
CCc1c(Cc2cc(C)cc(C)c2)n(COCC#Cc2cnccn2)c(=O)[nH]c1=O	30 µM